Anti-infective test results gathered from many reports (values: NIAID ChemDB through PubChem).

All rows: whole-cell or culture tests

Inhibition is in % at the dose shown (toxicity tests: loss of growth or viability).

compound,species,strain or isolate,cell line,method,endpoint,dose,value
Nc1ccn([C@@H]2C[C@H](CO)[C@@H](O)[C@H]2O)c(=O)n1,Influenza C virus,,MDCK,cytopathic effect,EC50,,4.5 µg/mL
NC12CC3CC(CC(C3)C1)C2,Influenza B virus,B/LEE,CEF,plaque count,inhibition,4.7 µg/mL,0%
Nc1nc(Cl)cc(NCCCO)n1,Influenza B virus,B/GIFU/2/73,MDCK,plaque count,EC50,,>490 µM
[N-]=C=Nc1nncs1,Influenza B virus,B/Virginia/88,MDCK,virus yield,inhibition,1 µg/mL,90%
N=C1c2ncn([C@H]3C[C@H](O)[C@@H](CO)O3)c2NCN1OCc1cccc(F)c1,Influenza virus,TYPE A0/PR8/34,MDCK,cytopathic effect,EC50,,320 µg/mL
CCC(CC)[C@H](NC(C)=O)[C@@H]1[C@H](O)[C@@H](C(=O)O)C[C@H]1N=C(N)N,Influenza A virus,Influenza A/Sydney/05/97 (H3N2),MDCK,,EC50,,0.19 µM
C/C=C\[C@@H]1C[C@H](C(=O)O)N[C@H]1[C@@H](NC(C)=O)[C@](C)(CCC)OC,Influenza A virus,Influenza A H3N2 isolate C25C,MDCK,plaque count,EC50,,≤0.04 µg/mL
Nc1nc2c(ccn2[C@@H]2C[C@H](CO)[C@H](O)[C@@H]2O)c(=O)[nH]1,Influenza A virus,Influenza A/Victoria/3/75 (H3N2),,,MIC,,>100 µg/mL
Nc1nc(Cl)cc(NCC2(CO)CCC2)n1,Influenza B virus,B/GIFU/2/73,MDCK,plaque count,EC50,,45–58 µM
Cc1ccccc1CO[n+]1cnc2c(ncn2[C@@H]2O[C@H](CO)[C@@H](O)[C@H]2O)c1N.F[B-](F)(F)F,Influenza virus,TYPE A0/PR8/34,MDCK,cytopathic effect,EC50,,320 µg/mL
CCOC(=O)c1nc2cc([N+](=O)[O-])ccc2[nH]c1=O,Influenza virus,Maryland B,BSC-1/HELA,plaque count,EC50,,40 µg/mL
Nc1nccc(NCC2(CO)CC(CCc3ccccc3)C2)n1,Influenza B virus,B/GIFU/2/73,MDCK,plaque count,EC50,,9–14 µM
Cc1nc(N)c2ncn([C@@H]3O[C@H](CO)[C@@H](O)[C@H]3O)c2n1,Influenza virus,TYPE A0/PR8/34,MDCK,cytopathic effect,EC50,,100 µg/mL
CCC(CC)[C@H](NC(C)=O)[C@@H]1C[C@@H](C(=O)O)C[C@H]1N=C(N)N,Influenza A virus,Influenza A/Johannesburg/33/94 (H3N2),MDCK,,EC50,,0.1 µM
Cc1ccc(CON2CNc3c(ncn3[C@@H]3O[C@H](CO)[C@@H](O)[C@H]3O)C2=N)cc1,Influenza virus,TYPE A0/PR8/34,MDCK,cytopathic effect,EC50,,100 µg/mL
CC(N)C12CC3CC(CC(C3)C1)C2,Influenza A virus,Influenza A/Shanghai/16/89 (H3N2),VERO,ELISA,EC50,,0.03 µg/mL
Nc1nc(Cl)cc(NCC2(CO)CC(CCc3ccccc3)C2)n1,Influenza B virus,B/GIFU/2/73,MDCK,plaque count,EC50,,0.35–0.63 µM
N=C1c2ncn([C@@H]3O[C@H](CO)[C@@H](O)[C@H]3O)c2NCN1OCc1ccc(F)cc1,Influenza virus,TYPE A0/PR8/34,MDCK,cytopathic effect,EC50,,100 µg/mL
Nc1nc(Cl)cc(NCC2(CO)CC(Cc3ccccc3)C2)n1,Influenza B virus,B/GIFU/2/73,MDCK,plaque count,EC50,,0.27–0.66 µM
CCCC(CCC)C(NC(C)=O)C1C(N=C(N)N)CC(C(=O)O)C1O,Influenza A virus,Influenza A/Virginia/2/88R (H3N2),MDCK,,EC50,,0.03 µM
Nc1nc(Cl)cc(NCC2(CO)CC(CCCc3ccccc3)C2)n1,Influenza B virus,B/GIFU/2/73,MDCK,plaque count,EC50,,0.083–0.11 µM
CCC(CC)O[C@@H]1C=C(C(=O)O)C[C@H](N)[C@H]1NC(C)=O,Influenza B virus,B/LEE/40,MDCK,,EC50,,3 µM
Nc1nc(Cl)cc(NCC2(CO)CCCC2)n1,Influenza B virus,B/GIFU/2/73,MDCK,plaque count,EC50,,22–32 µM
CCC,Influenza A virus,USSR/3/85 (H3),MDCK,,EC50,,>500 µM

For reference, 3 entries again:

compound,species,strain or isolate,cell line,method,endpoint,dose,value
NC12CC3CC(CC(C3)C1)C2,Influenza B virus,B/LEE,CEF,plaque count,inhibition,4.7 µg/mL,0%
CCC(CC)O[C@@H]1C=C(C(=O)O)C[C@H](N)[C@H]1NC(C)=O,Influenza B virus,B/LEE/40,MDCK,,EC50,,3 µM
CCCC(CCC)C(NC(C)=O)C1C(N=C(N)N)CC(C(=O)O)C1O,Influenza A virus,Influenza A/Virginia/2/88R (H3N2),MDCK,,EC50,,0.03 µM

Blank or dashed fields: not listed here. Lines come from different laboratories, so protocols vary. ECn: concentration that inhibits the pathogen or its effect by n%. Two numbers with a dash give a range or band.